Laboratory results published in paper PMC8471451 (Pharmaceuticals, 2021).
The amount applied is not stated for every result.

Tested on: SARS-CoV-2 spike pseudovirus
Type: cell-based

| SMILES | Fold loss in antiviral entry activity relative to 6a [fold] | Times greater inhibitory activity against pseudovirus entry than 6a [times] |
| --- | --- | --- |
| C=CCc1cc(-c2cc(CC=C)c3oc(=O)n(Cc4nnc(-c5ccccc5F)o4)c3c2)c2oc(=O)n(Cc3nnc(-c4ccccc4F)o3)c2c1 [Compound 6h] | 2.10 |  |
| C=CCc1cc(-c2cc(CC=C)c3oc(=O)n(Cc4nnc(-c5ccc(OC)cc5)o4)c3c2)c2oc(=O)n(Cc3nnc(-c4ccc(OC)cc4)o3)c2c1 [Compound 6p] |  | 2.97 |
